Assay results from US20230331823A1 (HENRY M JACKSON FOUNDATION FOR THE ADVANCEMENT OF MILITARY …, published 2023).

B1: BiShAb21a (ShAb02 VNAR-25aa-ShAb01 VNAR-3c-Fc) (bispecific antibody)
chain: ARVDQTPQTITKETGESLTINCVLRDSNCALASTDWYRKKSGSTNEESISKGGRYVETVNSGSKSFSLRINDLTVEDSGTYRCNAWDSWETRQLKCDYDVYGGGTVVTVNGGGGSGGGGSGGGGSGGGGSGGGGSARVDQTPRSVTKETGESLTINCVLRDSNCALSSTHWYRKKSGSTNEERILQGRRYVETVNSGSKSFSLRINDLRVEDSGTYRCKVYWGNSWQDKFCPGLGSYEYGDGTAVTVNSREPKSCDKGLEVLFQ[no letters for human IgG1 Fc and a few adjoining residues]
B2: ShAb01H02K (ShAb01Hole-02Knob) (bispecific antibody)
chain 1: ARVDQTPRSVTKETGESLTINCVLRDSNCALSSTHWYRKKSGSTNEERILQGRRYVETVNSGSKSFSLRINDLRVEDSGTYRCKVYWGNSWQDKFCPGLGSYEYGDGTAVTVNSREPKSCDKGLEVLFQGP[no letters for human IgG1 Fc with Y407T (EU numbers)]
chain 2: ARVDQTPQTITKETGESLTINCVLRDSNCALASTDWYRKKSGSTNEESISKGGRYVETVNSGSKSFSLRINDLTVEDSGTYRCNAWDSWETRQLKCDYDVYGGGTVVTVNSREPKSCDKGLEVLFQGP[no letters for human IgG1 Fc with T366Y (EU numbers)]

Assays:
Assay in all cases: BLI, ShAb-Fc on AHC probe, RBD analyte, 1:1 fit
[1] = target: T1, SARS-CoV-2 RBD L452R (SARS-CoV-2)
T1 construct: range […]

[2] = target: T2, SARS-CoV-2 RBD K417N (SARS-CoV-2)
T2 construct: range […]

[3] = target: T3, SARS-CoV-2 RBD N501Y (SARS-CoV-2)
T3 construct: range […]

[4] = target: T4, SARS-CoV-2 RBD E484K (SARS-CoV-2)
T4 construct: range […]

| Binder | Kd [1] [nM] | koff [1] [s⁻¹] | kon [1] [M⁻¹ s⁻¹] | Kd [2] [nM] | koff [2] [s⁻¹] | kon [2] [M⁻¹ s⁻¹] | Kd [3] [nM] | koff [3] [s⁻¹] | kon [3] [M⁻¹ s⁻¹] | Kd [4] [nM] | koff [4] [s⁻¹] | kon [4] [M⁻¹ s⁻¹] |
| --- | --- | --- | --- | --- | --- | --- | --- | --- | --- | --- | --- | --- |
| B1 | 1.23 | 0.000133 | 109000 | 1.67 | 0.000352 | 211000 | 1.79 | 0.00037 | 207000 | 1.98 | 0.000415 | 210000 |
| B2 |  |  | 156000 | 1.29 | 0.000457 | 353000 | 1.51 | 0.000513 | 341000 | 1.65 | 0.000511 | 310000 |
